Earlier results in publication PMC12391581 (Antiviral Research, 2025).

Tested on: zoonotic influenza viruses
Details: swine influenza A(H1N1)v virus with NA-H275Y (sequence only, not tested phenotypically); ref NA marker tables; Baek et al., 2015; Hurt et al., 2009b; Ilyushina et al., 2010; Le et al., 2005; Nguyen et al., 2013; cited from earlier work

## peramivir
  NAI inhibition phenotype (NI/RI/HRI): HRI (HRI is a >100-fold increase)

## CCOC(=O)C1=C[C@@H](OC(CC)CC)[C@H](NC(C)=O)[C@@H](N)C1 [Oseltamivir, oseltamivir]
  NAI inhibition phenotype (NI/RI/HRI): HRI (HRI is a >100-fold increase)
